{"source": "patent US20050227956A1", "about": "“Control of mold growth on wood” (priority 2004, published 2005)", "system": "Alternaria alternata", "experiment": "Six-well plate screening test", "type": "cell-based", "data": [{"substance": "iron(III) dimethyldithiocarbamate [Ferbam]", "values": [{"measurement": "Minimum Inhibitory Concentrations (MIC)", "result": ">100", "unit": "mg/kg"}]}]}
